Laboratory results from article PMC10467137, “In Silico–Ex Vitro Iteration Strategy for Affinity Maturation of Anti-Ricin Peptides and the SPR Biosensing Application” (2023).

Biological target: ricin (Ricinus communis, UniProt P02879)
Test: SPR binding affinity and kinetics of peptides to immobilised ricin
Details: SPR Biacore T200, ricin on CM5 chip, peptides in 0.01 M HEPES, 0.15 M NaCl, 0.05% Tween 20, pH 7.4; multi-cycle kinetics, 1:1 binding model

Compound `C[C@H](NC(=O)[C@H](CC(N)=O)NC(=O)[C@H](Cc1ccccc1)NC(=O)[C@H](Cc1ccc(O)cc1)NC(=O)[C@H](CO)NC(=O)[C@@H](N)CCC(N)=O)C(=O)N[C@@H](CS)C(=O)N[C@@H](Cc1c[nH]c2ccccc12)C(=O)N[C@@H](CO)C(=O)N[C@@H](CS)C(=O)N[C@@H](CC(N)=O)C(=O)N[C@@H](Cc1c[nH]cn1)C(=O)O` has a ka of 470 M⁻¹ s⁻¹.
